Kd data for one molecule are collected here from US20160376333A1, “Polypeptides to inhibit epstein barr viral protein BHRF1 and B cell lymphoma family proteins” (University of Washington, published 2016).

The target of this experiment is T1, Epstein-Barr virus BHRF1 a.a. 1-161 with C-terminal avi-6his tag (Epstein-Barr virus).
T1 construct: also called EBV BHRF1; BHRF1-biotin
T1 chain: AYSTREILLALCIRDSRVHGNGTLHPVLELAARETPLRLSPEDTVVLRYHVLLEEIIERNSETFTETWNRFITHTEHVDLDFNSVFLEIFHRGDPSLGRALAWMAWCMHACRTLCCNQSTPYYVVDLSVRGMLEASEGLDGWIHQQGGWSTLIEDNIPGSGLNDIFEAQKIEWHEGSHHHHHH
As to the kind of experiment: yeast surface display titration (apparent KD).

B1: BbpD04.3 (designed binder)
chain: ADWKKVLDKAKDIAENRVRELKQKLEEFYKEAMKLDLTQEMRRKLMLRWIAAMLMAIGDIFNAIRQAKQEADKLKKAGLVNSQQLDELKRRLEELKEEASRKARDYGREFQLKLEY
With B1, the Kd stood at 0.54 nM.
